Measured values from several laboratories, pooled; numbers as filed in NIAID ChemDB.

Common to all: growth or infection tests; agent: HIV-1; endpoint: fold resistance

An empty or dashed field is not shown.

structure | cell line | setting | read by | strain | mutations | value
CC(=O)Oc1ccc(/C=C/C(=O)O[C@@H](C(=O)O)[C@@H](OC(=O)/C=C/c2ccc(OC(C)=O)c(OC(C)=O)c2)C(=O)O)cc1OC(C)=O | MT-4 |  | cytopathic effect / MTT | NL4-3 | DS-resistant | >9
Cc1cc(SC2=C(O)C[C@@](CCc3ccc(N)cc3)(C(C)C)OC2=O)c(C(C)(C)C)cc1CO | CEM |  | cytopathic effect |  | PR-L10I L19I S37Q M46L I54V R57K L63P V71V V82A L90M | 2
CCCN(C)c1c(Cc2cc(C)cc(C)c2)c(CC)c(C)[nH]c1=O | MT-4 |  | cytopathic effect / MTT | Recombinant | RT-Y188L | 24.8
C#C[C@]1(CO)O[C@@H](n2cc(I)c(=O)[nH]c2=O)C[C@@H]1O | HeLa |  | β-galactosidase | RTMDR | RT | 0.865
O=S(=O)(O)OC1C(OS(=O)(=O)O)C(OS(=O)(=O)O)C(OS(=O)(=O)O)C(OS(=O)(=O)O)C1OS(=O)(=O)O | MT-4 |  | cytopathic effect / MTT | NL4-3 | GP120-K320Q | >25
CC(C)=CCN1Cc2cc(Cl)cc3[nH]c(=S)n(c23)C[C@@H]1C | CEM |  | syncytia | IIIB BHAP(RT-L100I) | RT-L100I | 13.5
Cc1cn([C@H]2C[C@H](N=[N+]=[N-])[C@@H](CO)O2)c(=O)[nH]c1=O |  |  |  | NL4-3 | AMD3100-resistant | 0.000245
Nc1ccn([C@@H]2O[C@H](CO)C=C2F)c(=O)n1 | PBMC |  |  | 3TC-resistant (RT M184V) | RT-M184V | 0.2
CC[C@H]1C(=O)Nc2ccc(F)cc2N1C(=O)OC(C)C | CEM |  | cytopathic effect | TSAO-m3T-resistant | RT-E138K | 2.7
Fc1cccc(F)c1Cn1c(-c2c(F)cccc2F)nc2c(Br)cccc21 | MT-4 |  | cytopathic effect / MTT |  | RT-Y188C | 6.8
CCOCn1c(Cc2ccccc2)c(CC)c(=O)[nH]c1=O | CEM |  | syncytia | IIIB HEPT-resistant (RT Y188H) | RT-Y188H | 1825
Cc1cn([C@H]2C[C@H](N=[N+]=[N-])[C@@H](CO)O2)c(=O)[nH]c1=O | MT-4 |  | cytopathic effect / XTT | T3-16(RT-Y181C) | RT-Y181C | 0.6
Cc1cn([C@H]2C=C[C@@H](CO)O2)c(=O)[nH]c1=O | PBMC |  | p24 | HxB2D(RT-D67G) | RT-D67G | 0.833
CCN1c2ncc(CCOc3ccc(CC(=O)O)c4ccccc34)cc2C(=O)N(C)c2ccc(F)nc21 | C8166 |  | p24 |  | RT-K103N Y181C | 1
Nc1ccn([C@H]2C[C@H](O)[C@](CO)(CF)O2)c(=O)n1 | HeLa |  | β-galactosidase | RT-M41L T69SSG T215Y | RT M41L T69SSG insertion T215Y | 14.3
CC(C)=CCN1Cc2cc(Cl)cc3[nH]c(=S)n(c23)C[C@@H]1C | HT4 + HT4 LacZ-1 |  | plaque count | HXB2 | RT-M41L Y181C T215Y | 25.5
CC(C)[C@H](NC(=O)N(C)Cc1ccccn1)C(=O)N[C@@H](Cc1ccccc1)[C@H](O)[C@H](O)[C@H](Cc1ccccc1)NC(=O)[C@@H](NC(=O)N(C)Cc1ccccn1)C(C)C | MT-4 |  | p24 | NL4-3 | PR-M46I | 1
CC(=O)Nc1cccc2c1nc(-c1c(F)cccc1F)n2Cc1c(F)cccc1F | MT-4 |  | cytopathic effect / MTT |  | RT-V108I | 17.1
Nc1ccn([C@H]2CC[C@@H](CO)O2)c(=O)n1 | MT-4 |  | cytopathic effect / XTT | 22(RT-L100I Y188H) | RT-L100I Y188H | 0.15
Cc1cn([C@H]2C[C@H](N=[N+]=[N-])[C@@H](CO)O2)c(=O)[nH]c1=O | PBMC |  |  | 3TC-resistant (RT M184V) | RT-M184V | 0.3
CCN1c2ncc(CCOc3ccc(C(=O)O)c4c3CCCC4)cc2C(=O)N(C)c2cccnc21 | C8166 |  | p24 |  | RT-K103N Y181C | 1
Fc1cccc(F)c1C1OCc2nc3ccccc3n21 | CEM |  | cytopathic effect / MTT | Pyridinone-resistant (RT Y181C) | RT-Y181C | ≥3.64
CCc1c(C(=O)c2cc(C)cc(C)c2)n(CC2CC=CC2)c(=O)[nH]c1=O | CEM + CEM-SS |  | cytopathic effect / XTT | NL4-3 | RT-L74V | 0.1
CCOCn1c(Sc2ccccc2)c(CC)c(=O)[nH]c1=O | CEM |  | syncytia | IIIB NEV(RT-V106A) | RT-V106A | 16
Cc1ccnc2c1NC(=O)c1cccnc1N2C1CC1 |  |  |  | NL4-3 | DS-resistant | 0.333
Cc1cc(C)cc(Cc2c(CC(C)C)c(C)[nH]c(=O)c2N(C)C)c1 | MT-4 |  | cytopathic effect / MTT | Recombinant | RT-Y188L | 157
c1cc(CN2CCCNCCNCCCNCC2)ccc1CN1CCCNCCNCCCNCC1 |  |  |  | NL4-3 | AMD3100-resistant | 21.7
Cc1cn([C@@H]2O[C@H](CO[Si](C)(C)C(C)(C)C)C3(OS(=O)(=O)C=C3N)[C@H]2O[Si](C)(C)C(C)(C)C)c(=O)n(C)c1=O | CEM |  | cytopathic effect | NNRTI-resistant | RT-L100I | 2.17
O=c1[nH]cnc2c1ncn2[C@H]1CC[C@@H](CO)O1 | HeLa |  | β-galactosidase |  | RT-Y181C | 1.375
Nc1ccn([C@H]2CC[C@@H](CO)O2)c(=O)n1 | PBMC |  | p24 | HxB2D(RT-D67G) | RT-D67G | 5.85
CCc1cc(NCc2nc3c(Cl)ccc(Cl)c3o2)c(=O)[nH]c1C | CEM |  | syncytia | IIIB E-EBU(RT-Y181C) | RT-Y181C | >1430
c1ccc(C2OCc3nc4ccccc4n32)cc1 | CEM |  | cytopathic effect / MTT | Nevirapine-resistant (RT V106A) | RT-V106A | >2
Nc1cccc2c1nc(-c1c(F)cccc1F)n2Cc1c(F)cccc1F | MT-4 |  | cytopathic effect / MTT |  | RT-L74V | 0.6
Cc1cn([C@H]2C[C@H](N=[N+]=[N-])[C@@H](CO)O2)c(=O)[nH]c1=O | MT-2 |  | RT activity | A17 | RT-K103N Y181C | 0.5
COC(=O)c1cccc2c1nc(-c1c(F)cccc1F)n2Cc1c(F)cccc1F | MT-4 |  | cytopathic effect / MTT |  | RT-Y188H | 1.58
Nc1nc(=O)n([C@H]2CS[C@@H](CO)O2)cc1F | MT-2 | pseudotyped | recombinant virus assay / single cycle | HXB2 | T66K | 1
O=C(O)P(=O)(O)O | MT-2 |  |  | HXB2 | TAM1 (M41L D67N L210W T215Y) | 0.5
O=c1[nH]cnc2c1ncn2[C@H]1CC[C@@H](CO)O1 | MT-4 |  | cytopathic effect / XTT | 118(RT-L100I) | RT-L100I | 0.802
CC(C)(C)NC(=O)[C@@H]1C[C@@H]2CCCC[C@@H]2CN1C[C@@H](O)[C@H](Cc1ccccc1)NC(=O)[C@H](CC(N)=O)NC(=O)c1ccc2ccccc2n1 | MT-4 |  | p24 | NL4-3.C11 (PR L10F M46I I84V T91S) | PR-L10F M46I I84V T91S | 0.333
Nc1nc(=O)n([C@@H]2CO[C@H](CO)S2)cc1F | PBMC |  | p24 | HXB2D (RT-M184V) | RT-M184V | 3
C=C(CC(=O)O)c1ccc(OCCc2cnc3c(c2)C(=O)N(C)c2cccnc2N3CC)c2ccccc12 | C8166 |  | p24 |  | RT-K103N Y181C | 1–10
Nc1ccn([C@H]2CO[C@@H](CO)S2)c(=O)n1 | PBMC |  | p24 | HXB2D (RT-K65R) | RT-K65R | 35
CCN1c2ncc(CCOc3ccc(CCC(=O)NN)c4ccccc34)cc2C(=O)N(C)c2cccnc21 | C8166 |  | p24 |  | RT-K103N Y181C | 1–10
C#C[C@]1(CO)O[C@@H](n2cc(C)c(=O)[nH]c2=O)C[C@@H]1O | HeLa |  | β-galactosidase | RT-M41L/T215Y | RT-M41L T215Y | 1.19
CCOCn1c(Cc2cc(C)cc(C)c2)c(CC)c(=O)[nH]c1=O | CEM |  | syncytia | IIIB E-EBU(RT-Y181C) | RT-Y181C | 367

Repeating the first 6 entries:

structure,cell line,setting,read by,strain,mutations,value
CC(=O)Oc1ccc(/C=C/C(=O)O[C@@H](C(=O)O)[C@@H](OC(=O)/C=C/c2ccc(OC(C)=O)c(OC(C)=O)c2)C(=O)O)cc1OC(C)=O,MT-4,,cytopathic effect / MTT,NL4-3,DS-resistant,>9
Cc1cc(SC2=C(O)C[C@@](CCc3ccc(N)cc3)(C(C)C)OC2=O)c(C(C)(C)C)cc1CO,CEM,,cytopathic effect,,PR-L10I L19I S37Q M46L I54V R57K L63P V71V V82A L90M,2
CCCN(C)c1c(Cc2cc(C)cc(C)c2)c(CC)c(C)[nH]c1=O,MT-4,,cytopathic effect / MTT,Recombinant,RT-Y188L,24.8
C#C[C@]1(CO)O[C@@H](n2cc(I)c(=O)[nH]c2=O)C[C@@H]1O,HeLa,,β-galactosidase,RTMDR,RT,0.865
O=S(=O)(O)OC1C(OS(=O)(=O)O)C(OS(=O)(=O)O)C(OS(=O)(=O)O)C(OS(=O)(=O)O)C1OS(=O)(=O)O,MT-4,,cytopathic effect / MTT,NL4-3,GP120-K320Q,>25
CC(C)=CCN1Cc2cc(Cl)cc3[nH]c(=S)n(c23)C[C@@H]1C,CEM,,syncytia,IIIB BHAP(RT-L100I),RT-L100I,13.5

Fold resistance has wild type as its base. Lines come from different laboratories, so protocols vary. Two numbers with a dash give a range or band.